Pooled drug test results. Numbers come from NIAID ChemDB, via PubChem.

Shared fields: growth or infection tests; species: Cryptococcus neoformans; read-out: MIC

Lines come from different laboratories, so protocols vary. Two numbers with a dash give a range or band. Blank or dashed fields: not listed here.

smiles,strain or isolate,read by,value
C[C@@H](n1cnc2cc(Cl)ccc2c1=O)[C@](O)(Cn1cncn1)c1ccc(F)cc1F,Isolate 125.96,-,≤0.0012 µg/mL
CN(C)c1ccc(C2Sc3ccccc3C2CO)cc1,93/V,-,50 µg/mL
CC(C)=CCC/C(C)=C/CN(C/C=C(\C)CCC=C(C)C)C(=N)N,ATCC 90012,-,250 µg/mL
COc1cc(O)c2c(c1)C(=O)c1c(cc3c(c1O)-c1c(cc(C)c(C(=O)NC(CO)C(=O)O)c1O)[C@H](OC1OC(C)C(O)C(OC4OCC(O)C(O)C4O)C1O)C3O)C2=O,15 strains,-,2 µg/mL
CCC(C)CC(C)CCCCCCCCC(=O)N[C@H]1C[C@@H](O)[C@H](NCCN)NC(=O)[C@@H]2[C@@H](O)CCN2C(=O)[C@H]([C@H](O)CCN)NC(=O)[C@H]([C@H](O)[C@@H](O)c2ccc(O)cc2)NC(=O)[C@@H]2C[C@@H](O)CN2C(=O)[C@H]([C@@H](C)O)NC1=O,1 isolates,-,>2 µg/mL
Clc1ccc(-c2n[nH]c(CN3CCc4sccc4C3)n2)cc1,NCIM576,agar,100 µg/mL
CC(C)c1c(C(c2ccccc2)n2ccnc2)cnn1-c1ccccc1,-,-,66 µM
C=C1CCN(C(C)C(O)(Cn2cncn2)c2ccc(F)cc2F)CC1,KC-201,-,0.2 µg/mL
CSc1nccn1C,-,-,>200 µg/mL
Cn1ncc(C(c2ccccc2)n2ccnc2)c1-c1ccccc1,-,-,>200 µM
CC(C)=CCC1=C(O)c2ccccc2C(=O)C1=O,-,-,0.03 µg/mL
N=C(N)c1ccc(OC/C=C\COc2ccc(C(=N)N)cc2)cc1,ATCC 32264,-,3.12 µg/mL
CSc1cc(-c2ccc(Cl)cc2)c(C(=O)O)s1,CN-17,-,>100 µg/mL
Cc1cc(NC(=O)c2cccc(NC(=O)COc3ccc(Cl)cc3)c2)no1,ATCC90112,-,>100 µg/mL
CCOC(=O)c1sc(SC)cc1-c1ccc(F)cc1,CN-17,-,>100 µg/mL
CSc1nc2ccccc2c(=O)n1/N=C1\C(=O)N(CN2CCOCC2)c2ccccc21,-,-,4.88 µg/mL
CCOC(=O)c1sc(SC)cc1-c1ccc(Cl)cc1,CN-17,-,>100 µg/mL
Clc1ccc(CN(Cc2ccc(-c3ccccc3)cc2)n2ccnc2)c(Cl)c1,-,-,2.5 µM
O=C(c1ccccc1)N1CCC(n2cc(-c3noc(=O)[nH]3)nn2)CC1,NCIM576,agar,40 µg/mL
CO[C@H]1[C@@H](O)[C@H](O)[C@H](OC[C@@]23C[C@@H]4[C@H](C)CC[C@H]4[C@@]4(C=O)C[C@@H]2C=C(C(C)C)[C@@]34C(=O)O)O[C@@H]1C,2867E,-,>125 µg/mL
COc1ccc(/C=C2\COc3ccccc3C2=O)cc1,25,-,50 µg/mL
COc1ccc(Cc2nc(CN3CCc4sccc4C3)n[nH]2)cc1,NCIM576,agar,87.5 µg/mL
CC(C)(C)c1c(C(c2ccccc2)n2ccnc2)cnn1-c1ccccc1,-,-,66 µM
CC#CC#CC#Cc1ccccc1,-,-,12.5 µg/mL
CN[C@@H]1[C@H](O[C@@H]2OC[C@@H](O)[C@H](O)[C@H]2O)[C@@H](O)[C@H](O[C@H]2c3cc(C)c(C(=O)N[C@H](C)C(=O)O)c(O)c3-c3c(cc4c(c3O)C(=O)c3cc(OC)cc(O)c3C4=O)[C@@H]2O)O[C@@H]1C,D49,-,1.6 µg/mL
CSc1nc2ccccc2c(=O)n1/N=C1\C(=O)N(CN(C)C)c2ccc(Cl)cc21,-,-,4.88 µg/mL
c1ccc(-c2c(C(c3ccccc3)n3cncn3)cnn2-c2ccccc2)cc1,-,-,>200 µM
C=C1CC[C@@H]2C(C)(C)CCC[C@@]2(C)[C@@H]1C/C=C/C(C=O)CC=O,ATCC 90113,-,20 µg/mL
Cc1cc(NC(=O)c2ccccc2NC(=O)COc2ccccc2)no1,ATCC90112,-,>100 µg/mL
CSc1nc2ccccc2c(=O)n1/N=C1\C(=O)N(CN2CCOCC2)c2ccc(Cl)cc21,-,-,4.88 µg/mL
Cc1cc(NC(=O)c2ccccc2NC(=O)COc2ccc(Cl)cc2Cl)no1,ATCC90112,-,>100 µg/mL
Cn1cc[nH]c1=S,-,-,>200 µg/mL
CCC(C)CC(C)CCCCCCCCC(=O)N[C@H]1C[C@@H](O)[C@H](NCCN)NC(=O)[C@@H]2[C@@H](O)CCN2C(=O)[C@H]([C@H](O)CCN)NC(=O)[C@H]([C@H](O)[C@@H](O)c2ccc(O)cc2)NC(=O)[C@@H]2C[C@@H](O)CN2C(=O)[C@H]([C@@H](C)O)NC1=O,887.002,-,>2 µg/mL
Cc1nn(-c2ccccc2)c2nsc(N)c12,-,-,4–16 µg/mL
Cc1cc(NC(=O)c2ccc(NC(=O)COc3ccccc3)cc2)no1,ATCC90112,-,>100 µg/mL
C[C@H]([C@](O)(Cn1cncn1)c1ccc(F)cc1F)S(C)(=O)=O,R717 (AZOLE-R),-,10 µM
CCOC(=O)c1sc(SC)c(C#N)c1O,CN-17,-,>100 µg/mL
CCCc1c(C(c2ccccc2)n2cncn2)cnn1-c1ccccc1,-,-,>200 µM
C[C@H]1[C@H](O)[C@@H](C)/C=C/C=C/C=C/C=C/C=C/C=C/C=C/[C@H](O[C@@H]2O[C@H](C)[C@@H](O)[C@H](N)[C@@H]2O)C[C@@H]2O[C@](O)(C[C@@H](O)C[C@@H](O)CC[C@H](O)[C@@H](O)C[C@@H](O)CC(=O)O[C@H]1C)C[C@H](O)[C@H]2C(=O)O,IAM 4514,-,0.2 µg/mL
CCCc1c(C(c2ccccc2)n2ccnc2)cnn1-c1ccccc1,-,-,66 µM
CCC(C)CCCCCCCCC1CC(=O)NCC(=O)N[C@@H](CCCN)C(=O)N[C@@H](C(C)C)C(=O)N1,TIMM0354,-,0.63 µg/mL
OCc1c(-c2ccc3c(c2)OCO3)sc2ccccc12,Isolate 25,-,12.5 µg/mL
OB1OCc2ccc3ccccc3c21,-,-,32 µg/mL
Cn1ccnc1S(C)=O,-,-,>200 µg/mL
CCCCC/C=C/C=C/C(O)C/C=C/C=C/C(=O)OC1C(O)C(c2c(O)cc(O)cc2CO)OC(CO)C1OC1OC(C(O)COC(=O)/C=C/C=C\CCC(O)CC)C(O)C1O,CR-1,-,>100 µg/mL
Fc1ccc(Cc2nc(CN3CCc4sccc4C3)n[nH]2)cc1,NCIM576,agar,37.5 µg/mL
Cc1cc(NC(=O)c2ccc(NC(=O)COc3ccccc3C)cc2)no1,ATCC90112,-,>100 µg/mL
CCOC(=O)c1sc(SC)c(C#N)c1N,CN-17,-,>100 µg/mL
CCC(O)/C=C/C=C/C=C/C(=O)OC[C@H]1O[C@@H](O[C@H]2[C@H](OC(=O)/C=C/C=C/CC(O)/C(C)=C/C=C/CCC(C)CC)[C@@H](O)[C@@]3(OCc4cc(O)cc(O)c43)O[C@@H]2CO)[C@H](O)[C@@H](O)[C@H]1O,D49,-,>100 µg/mL
CCOC(=O)c1sc2cc(-c3cccnc3)oc(=O)c2c1N,CN-17,-,>100 µg/mL
C=C1/C=C(\C)[C@H](CC)OC(=O)[C@H](C)C(=O)C(O)(CO)C/C(C)=C/[C@@H](C)C1,MY2062,-,12.5 µg/mL
CCOC(=O)c1sc2cc(-c3ccc(OC)cc3)oc(=O)c2c1N,CN-17,-,>100 µg/mL
N=C(N)c1ccc(OCCCC2CCN(CCCOc3ccc(C(=N)N)cc3)CC2)cc1,ATCC90112,-,0.0625 µg/mL
CSc1ncc([N+](=O)[O-])n1C,-,-,>200 µg/mL
CCOC(=O)c1sc2cc(-c3cccc([N+](=O)[O-])c3)oc(=O)c2c1N,CN-17,-,>100 µg/mL
O=P([O-])(OCCBr)OCCCCCCCCCCCCCCCCOP(=O)([O-])OCCBr,36556,-,6.25 µg/mL
C[C@H]1[C@H](O)[C@@H](C)/C=C/C=C/C=C/C=C/C=C/C=C/C=C/[C@H](O[C@@H]2O[C@H](C)[C@@H](O)[C@H](N)[C@@H]2O)C[C@@H]2O[C@](O)(C[C@@H](O)C[C@@H](O)CC[C@H](O)[C@@H](O)C[C@@H](O)CC(=O)O[C@H]1C)C[C@H](O)[C@H]2C(=O)O,5 isolates,-,0.31–1.25 µg/mL
Cc1cc(NC(=O)c2cccc(NC(=O)COc3cccc(Cl)c3Cl)c2)no1,ATCC90112,-,>100 µg/mL
COc1ccccc1/C=C1\CSc2ccc(Cl)cc2C1=O,93/V,-,12.5 µg/mL
COC(=O)C1C(O)CC2(O)CC(O)CC(O)CC(O)CC(O)CC(=O)CC(O)CC(=O)OC(C(C)CCC(O)CC(=O)c3ccc(N)cc3)C(C)/C=C/C=C/C=C/C=C/C=C/C=C/C=C/C(O[C@@H]3O[C@H](C)[C@@H](O)[C@H](N)[C@@H]3O)CC1O2,5 isolates,-,0.125–0.25 µg/mL
O=C1/C(=C/c2ccc3ccccc3c2)CSc2ccc(Cl)cc21,25,-,50 µg/mL
COc1cc(NC(C)CCCN)c2nc(C(C)(C)C)cc(C)c2c1Oc1cccc(C(F)(F)F)c1,-,-,5 µg/mL
NC(=S)NC1N=C(c2ccccc2)SN1,-,-,32 µg/mL
CSc1nc2ccccc2c(=O)n1/N=C1\C(=O)Nc2ccccc21,-,-,19.53 µg/mL
CCC(C)C1NC(=O)C(CC(C)C)OC(=O)C(C(C)C)OC(=O)C(NC(=O)C(C(C)CC)N(C)C(C)=O)C(C)OC(=O)C(CC(C)C)N(C)C(=O)C(C)NC(=O)C(C(C)C)N(C)C(=O)C(C(C)O)NC(=O)C(CC(C)C)N(C)C1=O,IAM 4772,-,1.56 µg/mL
CC(C)c1c(C(c2ccccc2)n2cncn2)cnn1-c1ccccc1,-,-,>200 µM
Clc1ccccc1-c1n[nH]c(CN2CCc3sccc3C2)n1,NCIM576,agar,125 µg/mL
CCC(C)CCCCCCC1CC(=O)NCC(=O)N[C@@H](CCCN)C(=O)N[C@@H](C(C)CC)C(=O)N1,TIMM0354,-,1.25 µg/mL
COc1cc(C2=NCCN2)ccc1OC/C=C\COc1ccc(C2=NCCN2)cc1OC,ATCC 32264,-,12.5 µg/mL
CCCCCCCCC(OC)C(=O)O,ATCC66031,-,110 µM
O=C1/C(=C/c2ccc3c(c2)OCO3)COc2ccc(-c3ccccc3)cc21,Farwania,-,50 µg/mL
CC(C)=CCN=C(NCC=C(C)C)NCC=C(C)C,ATCC 90012,-,250 µg/mL
CCc1c(C(c2ccccc2)n2cncn2)cnn1-c1ccccc1,-,-,>200 µM
CSc1nc2ccccc2c(=O)n1/N=C1\C(=O)Nc2ccc(Cl)cc21,-,-,4.88 µg/mL
c1ccc(C(c2ccccc2)c2n[nH]c(CN3CCc4sccc4C3)n2)cc1,NCIM576,agar,>200 µg/mL
COc1ccc(-c2sc3ccccc3c2CO)c(O)c1,Farwania,-,50 µg/mL
CSc1nc2ccccc2c(=O)n1/N=C1\C(=O)Nc2ccc(Br)cc21,-,-,9.76 µg/mL

The first 10 rows once more:

smiles	strain or isolate	read by	value
C[C@@H](n1cnc2cc(Cl)ccc2c1=O)[C@](O)(Cn1cncn1)c1ccc(F)cc1F	Isolate 125.96	-	≤0.0012 µg/mL
CN(C)c1ccc(C2Sc3ccccc3C2CO)cc1	93/V	-	50 µg/mL
CC(C)=CCC/C(C)=C/CN(C/C=C(\C)CCC=C(C)C)C(=N)N	ATCC 90012	-	250 µg/mL
COc1cc(O)c2c(c1)C(=O)c1c(cc3c(c1O)-c1c(cc(C)c(C(=O)NC(CO)C(=O)O)c1O)[C@H](OC1OC(C)C(O)C(OC4OCC(O)C(O)C4O)C1O)C3O)C2=O	15 strains	-	2 µg/mL
CCC(C)CC(C)CCCCCCCCC(=O)N[C@H]1C[C@@H](O)[C@H](NCCN)NC(=O)[C@@H]2[C@@H](O)CCN2C(=O)[C@H]([C@H](O)CCN)NC(=O)[C@H]([C@H](O)[C@@H](O)c2ccc(O)cc2)NC(=O)[C@@H]2C[C@@H](O)CN2C(=O)[C@H]([C@@H](C)O)NC1=O	1 isolates	-	>2 µg/mL
Clc1ccc(-c2n[nH]c(CN3CCc4sccc4C3)n2)cc1	NCIM576	agar	100 µg/mL
CC(C)c1c(C(c2ccccc2)n2ccnc2)cnn1-c1ccccc1	-	-	66 µM
C=C1CCN(C(C)C(O)(Cn2cncn2)c2ccc(F)cc2F)CC1	KC-201	-	0.2 µg/mL
CSc1nccn1C	-	-	>200 µg/mL
Cn1ncc(C(c2ccccc2)n2ccnc2)c1-c1ccccc1	-	-	>200 µM